From the supplement of paper PMC9931576
Human monoclonal antibodies against the spike receptor-binding domain (heavy:light variable regions). IC50 against pseudoviruses bearing the spike of naturally observed variants; lower = stronger; >10 µg/ml means not reached at the top dose. No active / inactive call. The stated detection limit is 0.0005 µg/ml; values near or below 0.001 µg/ml lie at the floor of the assay.

B1: BD55-5346 (protein)
chain 1: EVQLVESGGGLVRPGGSLRLSCAASGFIFSDYSLNWVRQAPGKGLEWVASISGGGGLFFYADSVKGRFTISRDNAKNSLFLQMDSLRVEDTALYFCATESRATRTPDLDYWGQGTLVTVSS
chain 2: DIQMTQSPPSLSASVGDRVTIICRASQTISKYLNWYQHKPGKAPKLLIYAASTLQSGVPSRFSGSGSGTDFTLTISSLQPEDFATYYCQQSYSSPPITFGQGTRLDIK
B2: BD55-5365 (protein)
chain 1: EVQLVESGGGLVQPGRSLRLSCKTSGFIVGDHSMSWVRQAPGKGLEWVGFMRSNTLGGTTEYAASVEGRFTVSRDDSKGIAYLQMNSLKTEDTAVYYCSRMGIMVSTYLGYYYGMDVWGQGTTVTVS
chain 2: DVQMTQSPSILSASVGDRVTITCRANESVSNWLAWYQQKPGKAPKLLIYAASNLESGAPSRFSGTGTGTEFTLTISSLQADDFATYYCQQYNGFMYTFGQGTKLEIK
B3: BD55-5358 (protein)
chain 1: EVQLVESGGGLVQPGGSLRLSCAASGFTFSSYDMHWVRQAPGKGLEWVSLIGGAGDTYYLGSVKGRFTISRENAKNSLYLQMSSLNAGDSAVYYCARSPTNYYGEPYGMDVWGQGTTVTVSS
chain 2: SYELTQPPSVSVSPGQTARITCSGDVLPRQYSYWYQQKPGQAPVLIISKDSERPSGIPERFSGSTSGTKVTLTISGVQAVDEADYYCQSADSGGAVFGGGTKLTVL
B4: BD55-5354 (protein)
chain 1: QGQLVQSGGEVKKPGASVKVSCKASGFILISYGMSWVRQAPGQGLEWMGWISAYSGQTNYAQKFQGRVILTTDTSTSTAHMELRSLTPDDTAVYYCVRDRRHLEWPMPPLGVWGQGTTVIVSS
chain 2: DIQMTQSPPSLSASVGDRVTVTCQASQDISRNLCWFQQKVGKAPRLLIYDASTLETGVPSRFSGSGSGTDFTLTISSLQPEDFATYYCQQYHNPPPYTFGQGTRLEIK
B5: BD55-5343 (protein)
chain 1: QITLKESGPTLVKPTQTLTLTCTFSSFSLSRNGVGVGWIRQAPGKALEWLAVIYWDDDKYYSPSLKSRLTITKDTSKNQVVLTMTNMDPVDTGTYYCAYSPIYYDSTGYETLFAFDIWGQGTRVTVSS
chain 2: EIVMTQSPDTLSVSPGERATLSCRASQSASSNLAWYQQKPGQAPRLLIYGASTRATGIPARFSGSGSGTEFTLTISSLQSEDFAVYYCQQYDNWAWTFGQGTKVEIK
B6: BD55-5323 (protein)
chain 1: EVHLVESGGGLVKPGGSLRLSCAASGFTFSSYTMNWVRQAPGKGLEWVSSVSGSTTFIFYADSVKGRFTISRDNAKNSLFLQMNSLRVEDTAVYYCARNYDILTPYSDAEYFHHWGQGTLVTVSS
chain 2: EIVLTQSPATLSLSPGERATLSCRASQSVSSNLAWYQQKPGQAPRLLIYDASNRATGIPGRFSGSGSGTDFTLTISSLEPEDFAVYYCQQRSNWPPYTFGQGTKLEIK
B7: BD55-5379 (protein)
chain 1: QVQLVQSGAEVKKPGASVKVSCKTSGYTFSKYDIHWLRQATGQGLEWLGWMNPNSGDADYAHSFQGRVTMTRNTSITTAYMELSSLRSEDTAVYYCAIEYGDRGYYYYYDVDVWGQGTAVTVSS
chain 2: IQMTQSPSSLSASVGDRVTITCRASQSISSYLNWYQQKPGKAPKLLIYDMSTLLSGVPSRFSGSGSGTDFTLTITNLQPDDFATYHCQQSYSTPPTFGRGTKVEIK
B8: BD55-5327 (protein)
chain 1: QERLVQSGAEVKKPGSSVKVSCQASGGTLSNRVINWVRQAPGQGPEYMGGIVPVFGPPNYAQKFQGRVTITADTSTNTVYMELKSLRSDDTAVYYCARDAASPTYSGYDWLSPGWLDPWGQGTLVTVSS
chain 2: DIVMTQSPDSLAVSLGERATINCKSSQSVLYSSNNKNHLAWYQQKPGLPPRLLIYWASTRESGVPDRFGGSGSGTDFTLTITSLQAEDAAVYYCQQYYSPPLTFGGGTKVEIK
B9: BD55-1039 (protein)
chain 1: QVQLQESGPGLVKPSQTLSLTCSVSGGSITSGGYYWSWIRQHPGKGLEWIGYVFYSGSTYYNPSLRSRLIISVDTSKNQFSLRLSSVTAADTAVYYCARDSDHYDSAGLTWAPGPFDIWGQGKLVTVSS
chain 2: DIRMTQSPPSLSASVGDRITITCQASQDINNYLNWYQQKPGKAPKLLIYDASNLDTGVPSSFSGSGSGTHFSLTISSLQPEDFATYYCQQYDNLPLTFGGGTKVEVK
B10: BD55-5359 (protein)
chain 1: EVQLVESGGGLIQPGGSLKLTCAASGFTVNSNYLTWVRQAPGKGLEWVAHIFAAGSSYYADSVKGRFTISRDNSKNTVYLQMNSLRAEDTADYYCARVRSNLITLFGVVTFESGHYQYYIDVWGKGTTVTVSS
chain 2: QSVLTQPPSVSAAPGQGVTVSCSGTSSNIGNTGVSWYQQLPGTAPKLLIYDNEKRPSGIPDRFSASKSGTSATLGITGVQAGDEADYYCGTWDSSLSLYVFGTGTKVTVL
B11: BD55-5386 (protein)
chain 1: QVQLLQSGAEVKKPGSSVTVSCKASGGTFTNSAINWVRQAPGQGLEWIGGIIPIIGPTSYAQKFQGRVTITADESSTTAYLDLRSLRSDDTAVYYCAKAHCGDCTPPRGYYFYYFGMDVWGQGTTVTVSS
chain 2: SYELTQPPSVSVSPGQTARITCSGDALPKQYSYWYQQRPGQAPVLLIYKDNERPSGIPERFSGSSSGTTVTLTISGVQAEDEADYYCQSADASSTYVVFGGGTKLTVL
B12: BD55-1041 (protein)
chain 1: QVQVVQSGAEVKKPGASVKVSCKASGYTFTTYSMHWVRQAPGQGLEWMGWINPNSGGTNYAQKFQGRVTMTRDTSISTAYMEMSRLRKDDTAVYYCARGVQEISAWDDYSYYYGLDVWGQGTTVTVS
chain 2: SYELTQPPSVSVSPGQTATITCSGDAFPKQYVYWYQQKPGQAPVLVINKDTERPSGIPERFSGSTSGTTVTLTISGVQAEDEADYYCLSPDSRGSYVFGGGTKVTVL

Molecular target: SARS-CoV-2 Omicron BA.1 spike pseudovirus
Assay: pseudovirus neutralization IC50; higher = weaker neutralization
Description: (§1)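 Single-round VSV luciferase pseudovirus mixed with antibody dilutions for 1 h and put on Huh-7 cells for about a day; IC50 from the dose curve.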

Binder	pseudovirus neutralization IC50 [µg/mL]
B1	> 10
B2	> 10
B3	> 10
B4	> 10
B5	> 10
B6	> 10
B7	1.93
B8	0.797
B9	1.69
B10	3.17
B11	0.00719
B12	0.935

Molecular target: SARS-CoV-2 Omicron BA.2 spike pseudovirus
Assay: as above
Description: as §1

Binder	pseudovirus neutralization IC50 [µg/mL]
B1	> 10
B2	> 10
B3	> 10
B4	> 10
B5	> 10
B6	> 10
B7	1.13
B8	> 10
B9	0.244
B10	3.51
B11	0.0275
B12	0.588

Molecular target: SARS-CoV-2 Omicron BA.2.75 spike pseudovirus
Assay: as above
Description: as §1

Binder	pseudovirus neutralization IC50 [µg/mL]
B1	> 10
B2	> 10
B3	> 10
B4	> 10
B5	> 10
B6	> 10
B7	1.19
B8	> 10
B9	0.699
B10	2.53
B11	1.74
B12	1.47

Molecular target: SARS-CoV-2 Omicron BA.5 spike pseudovirus
Assay: as above
Description: as §1

Binder	pseudovirus neutralization IC50 [µg/mL]
B1	> 10
B2	> 10
B3	> 10
B4	> 10
B5	> 10
B6	> 10
B7	1.57
B8	> 10
B9	> 10
B10	5.57
B11	0.0977
B12	0.754

Molecular target: SARS-CoV-2 Omicron BQ.1.1 spike pseudovirus
Assay: as above
Description: as §1

Binder	pseudovirus neutralization IC50 [µg/mL]
B1	> 10
B2	> 10
B3	> 10
B4	> 10
B5	> 10
B6	> 10
B7	1.07
B8	> 10
B9	> 10
B10	4.98
B11	> 10
B12	0.443

Molecular target: SARS-CoV-2 Omicron XBB spike pseudovirus
Assay: as above
Description: as §1

Binder	pseudovirus neutralization IC50 [µg/mL]
B1	> 10
B2	> 10
B3	> 10
B4	> 10
B5	> 10
B6	> 10
B7	2.09
B8	> 10
B9	> 10
B10	3.6
B11	> 10
B12	0.531

Molecular target: SARS-CoV-2 early D614G spike pseudovirus
Assay: as above
Description: as §1

Binder	pseudovirus neutralization IC50 [µg/mL]
B1	> 10
B2	0.716
B3	0.984
B4	1.22
B5	0.00781
B6	1.76
B7	0.842
B8	0.0196
B9	0.134
B10	2.28
B11	0.00214
B12	1.68
